Pooled drug test results. Numbers come from NIAID ChemDB, via PubChem.

Shared fields: tests on isolated targets

Percent inhibition refers to the dose given; in toxicity tests it is the harm to the cells.

compound	mutations	target	method	measure	dose	value
O=C1NCc2c1c1c3ccccc3[nH]c1c1[nH]c3ccccc3c21	-	Myosin light-chain kinase	-	IC50	-	420 µM
NC(N)=NCCC[C@@H]1NC(=O)[C@@H](Cc2ccc(O)cc2)NC(=O)CNC(=O)[C@H](Cc2ccc3ccccc3c2)NC(=O)[C@H](CCC(=O)O)NC1=O	-	CXCR4	radiometric	IC50	-	>1 µM
CN1Cc2c(c3c4ccccc4n(C)c3c3c2c2ccccc2n3CCC#N)C1=O	-	Tyrosine kinase	-	IC50	-	>10 µM
C[C@H]1NC(=O)CNC(=O)[C@H](Cc2ccc3ccccc3c2)NC(=O)[C@H](CCCN=C(N)N)NC(=O)[C@H](CCCN=C(N)N)NC1=O	-	CXCR4	radiometric	IC50	-	>1 µM
OC[C@H]1O[C@@H](n2cnc3c(Cl)c(Cl)c(Cl)cc32)[C@H](O)[C@@H]1O	-	Protein kinase A	-	IC50	-	>30 µM
Cc1cc(SC2=C(O)C[C@@](CCc3ccc(O)cc3)(C(C)C)OC2=O)c(C(C)(C)C)cc1CO	-	Cytochrome P450 2C9	-	inhibition	1 µM	0%
NC(N)=NCCC[C@@H]1NC(=O)[C@@H](Cc2ccc(O)cc2)NC(=O)CNC(=O)[C@H](Cc2ccc3ccccc3c2)NC(=O)[C@H](CCN=C(N)N)NC1=O	-	CXCR4	radiometric	IC50	-	1.1 µM
Clc1c(Cl)c(Cl)c2n[nH]nc2c1Cl	-	Protein kinase A	-	IC50	-	>30 µM
CCN(C(=O)OCc1ccccc1)C1CCN(CC[C@](C)(CN(C)S(=O)(=O)c2ccccc2)c2ccccc2)CC1	CCR5-W86A	CCR5	radiometric	IC50	-	0.21 µM
NC(N)=NCCNS(=O)(=O)c1cccc2cnccc12	-	Protein kinase C	-	IC50	-	>30 µM
O=C(c1ccccc1Cl)N1C[C@H](CN2CCC(O)(CCCc3ccc(-c4nn[nH]n4)cc3)CC2)[C@@H](c2ccccc2)C1	CCR5-Y37A	CCR5	radiometric	fold resistance	-	0.91
N#CCCn1c2ccc(O)cc2c2c3c(c4c5cc(O)ccc5[nH]c4c21)C(=O)NC3	-	cGMP-dependent kinase	-	IC50	-	0.043 µM
OC[C@H]1O[C@@H](n2c(I)nc3cc(Br)c(Br)cc32)[C@H](O)[C@@H]1O	-	Protein kinase A	-	IC50	-	>30 µM
O=C(c1ccccc1)N1C[C@H](CN2CCC(c3ccccc3)CC2)[C@@H](c2ccccc2)C1	CCR5-D276A	CCR5	radiometric	IC50	-	0.016 µM
NC(N)=NCCC[C@@H]1NC(=O)[C@@H](Cc2ccc(O)cc2)NC(=O)CNC(=O)[C@H](Cc2ccc3ccccc3c2)NC(=O)[C@@H]2C[C@@H](N=C(N)N)CN2C1=O	-	CXCR4	radiometric	IC50	-	>1 µM

For reference, 2 entries again:

C[C@H]1NC(=O)CNC(=O)[C@H](Cc2ccc3ccccc3c2)NC(=O)[C@H](CCCN=C(N)N)NC(=O)[C@H](CCCN=C(N)N)NC1=O ; target: CXCR4 ; method: radiometric ; measure: IC50 ; value: >1 µM
OC[C@H]1O[C@@H](n2c(I)nc3cc(Br)c(Br)cc32)[C@H](O)[C@@H]1O ; target: Protein kinase A ; measure: IC50 ; value: >30 µM

Lines come from different laboratories, so protocols vary. Fold resistance has wild type as its base. An empty or dashed field is not shown. ICn is the concentration giving n% inhibition.